Results of unrelated studies side by side (data: NIAID ChemDB).

Shared fields: growth or infection tests; agent: HIV-1

An empty or dashed field is not shown. ECn: concentration that inhibits the pathogen or its effect by n%. Neighbouring rows are from separate reports.

SMILES	cells	setting	mutations	strain or isolate	method	read-out	result
CC(C)Nc1n[nH]c2ccc(CN3C(=O)N(Cc4ccc5[nH]nc(NC(C)C)c5c4)[C@H](Cc4ccccc4)[C@H](O)[C@@H](O)[C@H]3Cc3ccccc3)cc12	MT-2			RF		EC50	<0.024 µM
CN1CCN(C2=Nc3cc(Cl)ccc3Nc3ccccc32)CC1	MT-2			IIIB	cytopathic effect / MTT	EC50	>17 µg/mL
O=C(/C=C/C=C/c1ccc(Br)cc1)[Se]c1ccccc1	MT-2			LAI	MTT	EC50	6.5 µM
CCCN(C(=O)OCc1ccccc1)C1CCN(CC[C@](C)(CN(C)S(=O)(=O)c2ccccc2)c2ccccc2)CC1	PBMC			YU-2 (M-tropic)	p24	EC95	~0.06 µM
OCCN1CCN(CCCN2c3ccccc3Sc3ccc(C(F)(F)F)cc32)CC1	MT-2			IIIB	cytopathic effect / MTT	EC50	>4.7 µg/mL
Cc1cc(C)c(-n2nnnc2SCC(=O)Nc2ccccc2I)c(C)c1	MT-4	50% human serum			p24	EC50	<1.25 µM
CC(C)Nc1cccnc1N1CCN(C(=O)c2cc3cc(NS(C)(=O)=O)ccc3[nH]2)CC1	PBMC		RT-V106A	BaL	p24	EC50	2.1 µM
CCc1cc(CCc2nc3ccccc3o2)c(=S)[nH]c1C	H9			IIIB	p24	EC95	0.1 µM
CCCN(C(=O)OCc1ccc([N+](=O)[O-])cc1)C1CCN(CC[C@H](CN(C)S(=O)(=O)c2ccccc2)c2ccccc2)CC1	PBMC			YU-2 (M-tropic)	p24	EC50	<0.1 µM
Cc1nc2n(c(=O)c1CCN1CCC(c3noc4cc(F)ccc34)CC1)CCCC2	CEM-T4 + CEM			IIIB	cytopathic effect / MTT	EC50	>107 µg/mL
O=C1CCc2ccccc2[Se]1	MT-2			LAI	MTT	EC50	>100 µM
O=C(CCCN1CCC(O)(c2ccc(Cl)cc2)CC1)c1ccc(F)cc1	CEM-T4 + CEM			IIIB	cytopathic effect / MTT	EC50	>132 µg/mL
COC(=O)[C@H](Cc1ccccc1)NP(=O)(O)OC[C@H]1O[C@@H](n2cnc3cnccc32)[C@H](O)[C@@H]1O	PBL			A012 PRE-AZT	p24	EC50	0.0093 µM
C=CCN(C(=O)OCc1ccc([N+](=O)[O-])cc1)C1CCN(CCC(CO)(CN(C)S(=O)(=O)c2ccccc2)c2ccccc2)CC1	PBMC			YU-2 (M-tropic)	p24	EC50	<0.008 µM
Nc1cccc(CN2C(=O)N(Cc3cccc(N)c3)[C@H](Cc3ccccc3)[C@H](O)[C@@H](O)[C@H]2Cc2ccccc2)c1	MT-2			THAI (PR-WT)	virus yield	EC50	<0.13 µM
CC(C)c1nc(CN(C)C(=O)N[C@H](C(=O)N[C@@H](Cc2ccccc2)C[C@H](O)[C@H](Cc2ccccc2)NC(=O)OCc2cncs2)C(C)C)cs1	MT-4		PR-D30N	NL4-3	p24	EC90	0.01 µM
CCc1cc(CCc2nc3c(Cl)ccc(Cl)c3o2)c(=O)[nH]c1C	H9		RT-K103N Y181C	A17	p24	EC95	1.5 µM
Cc1cc(C)c(-n2nnnc2SCC(=O)Nc2ccc(OCCCN(C)C)cc2Cl)c(C)c1	MT-4	50% human serum			p24	EC95	0.2 µM
Cc1cccc(C)c1OCC(=O)N[C@@H](Cc1ccccc1)[C@H](O)C(=O)N1CSC(C)(C)[C@H]1C(=O)NC(C)(C)C	MT-4					EC50	1.73 µM
Cc1ccc(Cl)cc1-n1nnnc1SCC(=O)Nc1ccccc1[N+](=O)[O-]	MT-4	50% human serum			p24	EC95	0.25 µM
CCN(C(=O)OCc1ccc([N+](=O)[O-])cc1)C1CCN(CC[C@](C)(CN(C)S(=O)(=O)c2ccccc2)c2ccccc2)CC1	MAGI + MAGI-CCR5			YU-2 (M-tropic)		EC50	<0.05 µM
Oc1ccc2c(c1)C(N1CCNCC1)=Nc1ccccc1N2	CEM-T4 + CEM			IIIB	cytopathic effect / MTT	EC50	>181 µg/mL
Cc1cc(C)c(-n2nnnc2SCC(=O)Nc2ccc([N+](=O)[O-])cc2C)c(C)c1	MT-4	50% human serum			p24	EC95	>5 µM
Oc1ccc2c(c1)N=C(N1CCNCC1)c1ccccc1N2	CEM-T4 + CEM			IIIB	cytopathic effect / MTT	EC50	37 µg/mL
Cc1c(O)cccc1C(=O)N[C@@H](Cc1ccccc1)[C@H](O)C(=O)N1CSC(C)(C)[C@H]1C(=O)NC(C)(C)C	CEM + CEM-SS			IIIB		EC50	0.02 µM
Cc1cc(C)c(-n2nnnc2SCC(=O)Nc2ccc(Cl)cc2[N+](=O)[O-])c(C)c1	MT-4	50% human serum			p24	EC50	<0.4 µM
[Li+]	CEM-T4 + CEM			IIIB	cytopathic effect / MTT	EC50	>200 µg/mL
Nc1nccc2c1ncn2[C@@H]1O[C@H](CO)[C@@H](O)[C@H]1O	PBL			A012 POST-AZT	p24	EC50	0.165 µM
O=C(CCc1ccccc1)[Se]c1ccccc1	MT-2			LAI	MTT	EC50	8.7 µM
COc1cc2c(c(OC)c1OC)-c1c(cc(OC(C)=O)c(OC)c1OC)C[C@H](C)[C@H](C)[C@H]2OC	C8166				MTT	EC50	1.82 µg/mL
C#CCN(C(=O)OCc1ccccc1)C1CCN(CCC(C)(CN(C)S(=O)(=O)c2ccccc2)c2ccccc2)CC1	PBMC			YU-2 (M-tropic)	p24	EC95	1.5 µM
COc1ccc(/C=C/C=C/C(=O)[Se]c2ccccc2)cc1	MT-2			LAI	MTT	EC50	3.4 µM
CN1CCN(CC/C=C2/c3ccccc3Sc3ccc(S(=O)(=O)N(C)C)cc32)CC1	CEM-T4 + CEM			IIIB	cytopathic effect / MTT	EC50	>8.4 µg/mL
CCNc1cccnc1N1CCN(C(=O)c2cc3cc(OC)ccc3[nH]2)CC1	Macrophage + Monocytes/macrophages			BaL	p24	EC50	0.72 µM
Cc1c(Cl)cccc1-n1nnnc1SCC(=O)Nc1ccccc1[N+](=O)[O-]	MT-4	10% FBS			p24	EC50	<0.008 µM
Nc1n[nH]c2ccc(CN3C(=O)N(Cc4ccc5ccccc5c4)[C@H](Cc4ccccc4)[C@H](O)[C@@H](O)[C@H]3Cc3ccccc3)cc12	MT-2		PR-S184V	RF		EC50	<0.43 µM
O=C(/C=C/c1ccccc1)[Se]c1ccccc1	MT-2			LAI	MTT	EC50	3.1 µM
CCCN(C(=O)OCc1cccc(C)c1)C1CCN(CCC(CN(C)S(=O)(=O)c2ccccc2)c2ccccc2)CC1	PBMC			YU-2 (M-tropic)	p24	EC95	1 µM

The last 3 rows once more:

SMILES | cells | setting | mutations | strain or isolate | method | read-out | result
Nc1n[nH]c2ccc(CN3C(=O)N(Cc4ccc5ccccc5c4)[C@H](Cc4ccccc4)[C@H](O)[C@@H](O)[C@H]3Cc3ccccc3)cc12 | MT-2 |  | PR-S184V | RF |  | EC50 | <0.43 µM
O=C(/C=C/c1ccccc1)[Se]c1ccccc1 | MT-2 |  |  | LAI | MTT | EC50 | 3.1 µM
CCCN(C(=O)OCc1cccc(C)c1)C1CCN(CCC(CN(C)S(=O)(=O)c2ccccc2)c2ccccc2)CC1 | PBMC |  |  | YU-2 (M-tropic) | p24 | EC95 | 1 µM